Four compounds from paper PMC6724046 (Viruses, 2019) can be followed below.

In this series the test system is CPV. Briefly: 50% antiviral efficacy concentration (EC50) assay, CPE-based. The class given is cell-based, Canine parvovirus. The settings on record: selectivity index, CC50/EC50.
Regarding `Nc1nc(Cl)nc2c1ncn2[C@H]1C[C@H](O)[C@@H](CO)O1` [Cladribine], the SI turned out to be 125.66.

As to `Cc1cc(C(C#N)c2ccc(Cl)cc2)c(Cl)cc1NC(=O)c1cc(I)cc(I)c1[O-].[Na+]` (stereo not shown) [Closantel Sodium], the SI is reported as 3.17.

Compound `Cc1cc(C(C#N)c2ccc(Cl)cc2)c(Cl)cc1NC(=O)c1cc(I)cc(I)c1O` (stereo not shown) [Closantel] had an SI of 1.76.

In turn, `O=c1[nH]c(=O)n([C@H]2C[C@H](O)[C@@H](CO)O2)cc1C(F)(F)F` [Trifluridine] registered an SI above 17.11.
